{"source": "paper PMC9163697", "about": "“Mechanistic insights into the activation of the IKK kinase complex by the Kaposi’s sarcoma herpes virus oncoprotein vFLIP” (The Journal of Biological Chemistry, 2022)", "proteins": {"B1": {"name": "R12E vFLIP mutant (domain or fragment)", "chain": "not shown", "notes": "vFLIP of KSHV with R12E; PDB […] holds the parent; source: E. coli, purified following the protocol for WT vFLIP"}}, "target": "the molecule itself", "experiment": "SEC-MALS; WT vFLIP or mutants alone, 0.5 mg/ml, Superdex 200 10/300 GL, 25 mM Tris-HCl pH 8.5, 200 mM NaCl, 1 mM DTT", "data": [{"protein": "B1", "values": [{"measurement": "stoichiometry N", "result": 2}]}]}
